Reference: US10300050B2, “Succinate salt of cytisine and use thereof” (dated 2019)

How the values were obtained:
[1] = Salt screen of cytisine with acid salt formers
[2] = with lactose, 9 days at 40° C. and 75% RH
[3] = Stability of cytisine succinate salt in standard formulations / excipient compatibility; conditions: preliminary analysis

With cytisine hydrogen succinate the Assessment ([1]; API stock solution 2-MeTHF) was “Equivalent succinate to CH3CN”, the Assessment ([1]; API stock solution CH3CN) was “Excellent salt profile, mono succinate,” and the “rate of degradation of cytisine versus free base form” value [2] was “degraded at a substantially lower rate”. For the same substance, the “stability of formulations versus formulations comprising cytisine free base” value [3] was “significantly more stable”.
